Data source: PubChem BioAssay AID624099 (ICCB-Longwood, 2012)
Purpose: 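Human genes that papillomavirus E2 requires to repress the HPV18 LCR promoter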 (primary screen). System: human C33A cervical carcinoma cells (HPV-negative) stably expressing BPV1 E2 and an HPV18 LCR luciferase reporter. Knock-down reagent: siRNA pool against human genes, 40 nM. Timing: 72 h. Detection: 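HPV18 LCR reporter light per well, converted to plate-wise z-scores that exclude control wells, and averaged over triplicate plates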. Direction: mean z-score and z-score: higher = stronger reporter signal, weaker E2 silencing. Rule for the call: 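Mean z ≥ 2 together with z ≥ 2 in two or more of the three replicates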.
Here is a random part of about 21,000 reagents. Of all reagents, 497 (2.4%) got an active call. 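Higher z means weaker E2 silencing; only reporter increases were scored, and knock-downs that hurt cell survival may mask genuine repressor factors.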 A number with no mark means an inactive call.

no.	gene symbol	mean z-score	z-score, replicate A	z-score, replicate B	z-score, replicate C
1	TGFB2	-0.36	0.02	-0.47	-0.63
2	DNAJC7	0.2	-0.02	0.44	0.18
3	LOC389953 (retired record)	-0.76	-0.65	-0.58	-1.07
4	RAD54L2	1	0.84	1.81	0.35
5	PRAMEF17	-1.45	-1.51	-1.14	-1.69
6	VGLL2	1.49	1.09	1.66	1.72
7	PVR	-0.03	-0.18	0.06	0.03
8	PARD3B	-0.05	-0.28	-0.05	0.18
9	MAX	-0.83	-0.54	-0.94	-1.02
10	REL	0.35	0.45	0.39	0.21
11	TTC3	1.75	1.52	1.6	2.12
12	PTPA	0.5	0.47	0.52	0.5
13	IL7	0.78	0.69	0.85	0.8
14	SHARPIN	1.56	1.19	1.83	1.66
15	FANCG	-0.8	-0.37	-0.93	-1.09
16	ITIH3	-0.55	-0.7	-0.81	-0.15
17	LOC400590 (retired record)	1.37	1.87	0.65	1.6
18	EPHX2	-1.03	-0.65	-1.29	-1.16
19	C1QTNF8	-0.77	-1.05	-0.45	-0.8
20	SRGAP1	-0.51	-0.6	-0.56	-0.38
21	PTER	0.6	0.61	0.47	0.71
22	LOC137829 (retired record)	-0.38	-0.56	-0.15	-0.42
23	NUAK2	0.4	0.62	0.35	0.21
